The values below come from PMC8062000, “High-throughput screening of the ReFRAME, Pandemic Box, and COVID Box drug repurposing libraries against SARS-CoV-2 nsp15 endoribonuclease to identify small-molecule inhibitors of viral activity” (PLoS ONE, 2021).

The nature of the assay: Amplex Red redox-cycling counter screen (H2O2 generation with DTT). The note with it: 1 mM DTT; compared with redox-cycling reference DA-3003-1. Background: Counterscreens check selectivity or assay interference.

Certain results were filed several times, with different values. The other results are left out here. There may be further records. Values that stand side by side differ for a reason that is not stated; some may be repeats, others may stem from another dose, organism or construct than stated.

`CC1(C)C(=O)N=C2C1=C(O)C(=O)c1ccccc12` [BVT-948]: the “Amplex Red Assay % Activity (redox cycling)” value was “redox reactive compounds and >100%”.
